pKd: −log10 of the molar value. Where “and” joins values, the source holds several entries; their conditions need not be identical. Identical values can stand only once.
Experiments:
[1] = molecular target: T1, HIV-1 CA hexamer (Human immunodeficiency virus type 1 group M subtype B, UniProt P12493, A146C/E177C/M317A/W316A); settings: ITC, −DTT; 50 mM TRIS pH 7.4, 150 mM NaCl; hexamer in syringe titrated into ligand in cell; read-out: Kd, binding to HIV-1 hexamer
T1 construct: produced by assembly of recombinant CA containing four amino acid substitutions; made in house

[2] = molecular target: T2, monomeric HIV-1 CA (Human immunodeficiency virus type 1 group M subtype B, UniProt P12493, A146C/E177C/M317A/W316A); experiment: ITC binding to monomeric CA (hexamer monomerized with 1 mM DTT); settings: +DTT (1 mM), approximate affinities for weak interactions, NB = no binding detectable
T2 construct: produced by assembly of recombinant CA containing four amino acid substitutions; made in house

In the case of PF74, the pKd [1] was 6.92 and ~7.00 and the pKd [2] was 5.57.

Reference: paper PMC4214760, “Host Cofactors and Pharmacologic Ligands Share an Essential Interface in HIV-1 Capsid That Is Lost upon Disassembly” (PLoS Pathogens, 2014)
